PubChem BioAssay AID504761 – Drosophila RNAi Screening Center, 2011

- Screen: 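Insect host genes that dengue virus relies on to spread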 (primary screen)
- Cell system: D.Mel-2 cells from Drosophila
- Reagent: long dsRNA against Drosophila genes
- Challenge: infection with dengue virus type 2; dose and infection time not stated
- Measured: 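Per well on two replicate plates, imaging gave the percent of cells positive for viral envelope protein, ranked by infection, and a nuclear count of cells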
- Scale: infection score: higher = more virus-infected cells; cell count: higher = more cells in the well
- Active means: 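Low infection ranks in the two replicates (chance level up to 0.065) followed by a retest with a 1.5-fold or larger significant decrease, p below 0.05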
- Calls: active = confirmed: knock-down lowers infection; inactive = not picked or not confirmed
The deposit covers about 22,000 reagents; below is an unselected part of those that have a named target and a result. Over the whole deposit, 116 (0.52%) got an active call. 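Calls depend on retest data that are not deposited; infection was ranked per plate without normalising between plates; the unit of the infection score is not given.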 Raw values vary from plate to plate and are shown uncorrected. Not given: the amount of reagent, the time to read-out.

| target | dsRNA | infection score, replicate 1 | infection score, replicate 2 | cell count, replicate 1 | cell count, replicate 2 | activity call |
| --- | --- | --- | --- | --- | --- | --- |
| Orct | DRSC16777 | 2.67 | 2.44 | 6897 | 6144 | inactive |
| Orct | DRSC25574 | 9.88 | 3.79 | 5505 | 6258 | inactive |
| fusl | DRSC02351 | 5.5 | 2.4 | 6131 | 6544 | inactive |
| fusl | DRSC28283 | 12.9 | 19.5 | 6260 | 5791 | inactive |
| COX6CL | DRSC00895 | 2.85 | 1.61 | 5799 | 5829 | inactive |
| ECSIT | DRSC12348 | 1.36 | 21.4 | 6565 | 5624 | inactive |
| mRpL45 | DRSC16146 | 3.57 | 24.3 | 5096 | 4105 | inactive |
| elB | DRSC01379 | 3.98 | 1.11 | 5472 | 5395 | inactive |
| elB | DRSC25039 | 6.72 | 2.1 | 6071 | 5810 | inactive |
| CG4294 | DRSC04460 | 25.9 | 19.9 | 5418 | 5551 | inactive |
| AdipoR | DRSC15767 | 2.28 | 8.13 | 6575 | 6482 | inactive |
| Acp1 | DRSC01854 | 4.31 | 3.84 | 5991 | 6256 | inactive |
| AttB | DRSC06734 | 29.8 | 20.3 | 5860 | 4219 | inactive |
| AttB | DRSC28997 | 16.6 | 16 | 6318 | 6162 | inactive |
| IRSp53 | DRSC10891 | 1.84 | 1.51 | 5755 | 6228 | inactive |
| CG4301 | DRSC19886 | 4.94 | 1.74 | 7023 | 7117 | inactive |
| CG31693 | DRSC03674 | 3.52 | 5 | 5883 | 5998 | inactive |
| CG11334 | DRSC14066 | 0.84 | 0.98 | 5854 | 6017 | inactive |
| CG11334 | DRSC14302 | 4.6 | 9.41 | 6800 | 3753 | inactive |
| eEF1alpha2 | DRSC14079 | 0.56 | 0.02 | 6426 | 6653 | inactive |
| eEF1alpha2 | DRSC16658 | 2.26 | 2.44 | 4246 | 4421 | inactive |
| myo | DRSC17174 | 2.64 | 6.26 | 6243 | 6755 | inactive |
| CG32425 | DRSC11764 | 10.9 | 16 | 5620 | 5865 | inactive |
| Rsf1 | DRSC03423 | 8.98 | 11.1 | 5801 | 5930 | inactive |
| Rsf1 | DRSC21953 | 3.39 | 1.43 | 6369 | 6354 | inactive |
| Rsf1 | DRSC27444 | 37 | 10.8 | 4989 | 6973 | inactive |

4 entries from above in another layout.
{"target":"IRSp53","dsRNA":"DRSC10891","infection score, replicate 1":1.84,"infection score, replicate 2":1.51,"cell count, replicate 1":5755,"cell count, replicate 2":6228,"activity call":"inactive"}
{"target":"CG4301","dsRNA":"DRSC19886","infection score, replicate 1":4.94,"infection score, replicate 2":1.74,"cell count, replicate 1":7023,"cell count, replicate 2":7117,"activity call":"inactive"}
{"target":"CG31693","dsRNA":"DRSC03674","infection score, replicate 1":3.52,"infection score, replicate 2":5,"cell count, replicate 1":5883,"cell count, replicate 2":5998,"activity call":"inactive"}
{"target":"CG11334","dsRNA":"DRSC14066","infection score, replicate 1":0.84,"infection score, replicate 2":0.98,"cell count, replicate 1":5854,"cell count, replicate 2":6017,"activity call":"inactive"}

The results go on:
| target | dsRNA | infection score, replicate 1 | infection score, replicate 2 | cell count, replicate 1 | cell count, replicate 2 | activity call |
| --- | --- | --- | --- | --- | --- | --- |
| CG31031 (retired record) | DRSC13964 | 0.53 | 0.12 | 6390 | 6488 | inactive |
| CR16735 | DRSC15144 | 4.01 | 21.7 | 6407 | 6020 | inactive |
| nAChRalpha3 | DRSC18800 | 7.38 | 16.5 | 6162 | 5995 | inactive |
| nAChRalpha3 | DRSC25751 | 12.8 | 18.3 | 5505 | 6064 | inactive |
| CG1791 | DRSC18141 | 3.81 | 2.89 | 6685 | 6748 | inactive |
| CG1791 | DRSC29301 | – | 10.8 | 354 | 4665 | inactive |
| CG32407 | DRSC09789 | 1.17 | 7.62 | 6159 | 5736 | inactive |
| CG13775 | DRSC02279 | 2.55 | 14.1 | 6431 | 6171 | inactive |
| CG13775 | DRSC29121 | 7.47 | – | 1460 | 275 | inactive |
| Cul1 | DRSC07645 | 11 | 25.1 | 1548 | 3822 | inactive |
| Cul1 | DRSC26395 | 8.5 | 0.48 | 4273 | 5175 | inactive |
| ste24b | DRSC07315 | 5.25 | 20.1 | 1544 | 6307 | inactive |
| ste24b | DRSC24340 | 2.57 | 3.77 | 6768 | 6650 | inactive |
